The values that follow come from patent US20210252150A1.

This test concerns the target HA of A/duck/Alberta/60/1976 (H12N5) (influenza A virus (H12N5)) (UniProt P03446). In words: ELISA. For orientation: In an ELISA, binding on a coated surface is turned into a signal by an enzyme label.

The substance “rFluA-20 heavy chain mutant C101A (antibody)” registered an EC50 of 0.09 µg/mL.

Usually EC50 stands for the midpoint of the concentration-response curve. Low readings indicate greater potency, high ones weaker potency.
